Paper PMC9698663, “Testing Serum Albumins and Cyclodextrins as Potential Binders of the Mycotoxin Metabolites Alternariol-3-Sulfate, Alternariol-9-Monomethylether and Alternariol-9-Monomethylether-3-Sulfate” (International Journal of Molecular Sciences, 2022)

What was measured:
[1] = Extraction of mycotoxins from buffer by β-CD bead polymer; conditions: BBP 10 mg/mL; mycotoxin 5 μM; sodium acetate buffer 0.05 M, pH 5.0; 40 min
[2] = Extraction of mycotoxins from buffer by γ-CD bead polymer; conditions: GBP 10 mg/mL; mycotoxin 5 μM; sodium acetate buffer 0.05 M, pH 5.0; 40 min

| SMILES | mycotoxin removed from the buffer by BBP [1] | mycotoxin extracted by GBP [2] |
| --- | --- | --- |
| COc1cc(O)c2c(=O)oc3cc(O)cc(C)c3c2c1 [AME, alternariol-9-monomethylether] | approximately 95% | approximately 90% |
| COc1cc(O)c2c(=O)oc3cc(OS(=O)(=O)O)cc(C)c3c2c1 [AMS, alternariol-9-monomethylether-3-sulfate ammonium salt] | approximately 95% | approximately 90% |
| Cc1cc(O)cc2oc(=O)c3c(O)cc(O)cc3c12 [AOH, Alternariol] | approximately 95% | approximately 90% |
| Cc1cc(OS(=O)(=O)O)cc2oc(=O)c3c(O)cc(O)cc3c12 [AS, Alternariol-3-sulfate ammonium salt] | approximately 95% | approximately 90% |

Structures can show the parent of a compound that is named as a salt.
